PubChem BioAssay AID624099, ICCB-Longwood – 2012
The whole screen tested about 21,000 reagents; below is an unselected part. In the full data, 497 (2.4%) got an active call. 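Higher z means weaker E2 silencing; only reporter increases were scored, and knock-downs that hurt cell survival may mask genuine repressor factors.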 Unmarked entries are inactive. The numbers tell different reagents against one gene apart.

- Screen: 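Host factors E2 relies on to silence an HPV18 LCR reporter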 (primary screen)
- System: human C33A cervical carcinoma cells (HPV-negative) stably expressing BPV1 E2 and an HPV18 LCR luciferase reporter
- Knock-down reagent: siRNA pool against human genes, 40 nM
- Time to read-out: 72 h
- Read-out: 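HPV18 LCR reporter light per well, converted to plate-wise z-scores that exclude control wells, and averaged over triplicate plates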
- Direction: mean z-score and z-score: higher = stronger reporter signal, weaker E2 silencing
- Call rule: 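Mean z ≥ 2 together with z ≥ 2 in two or more of the three replicates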

target gene	reagent	mean z-score	z-score, replicate A	z-score, replicate B	z-score, replicate C
DERL3 (GeneID 91319)	1	-1.08	-1	-1.14	-1.11
EPRS1 (GeneID 2058)	1	2.17	1.95	2.57	1.97
ANKRD18A (GeneID 253650)	1	1.14	1.46	1.03	0.92
LRRC30 (GeneID 339291)	1	0.07	-0.39	0.14	0.47
ANTXR1 (GeneID 84168)	1	-0.2	-0.24	-0.11	-0.25
SLC17A7 (GeneID 57030)	1	0.38	0.33	0.44	0.36
SCAND3 (GeneID 114821)	1	0.78	0.99	0.51	0.84
GTPBP10 (GeneID 85865)	1	0.11	-0.1	0.4	0.02
NTMT2 (GeneID 149281)	1	0.25	0.23	0.37	0.15
LOC402574 (retired record) (GeneID 402574)	1	0.91	1.38	0.52	0.82
GVQW3 (GeneID 100506127)	1	0.66	0.31	0.76	0.9
CHUK (GeneID 1147)	1	-0.85	-0.3	-1.38	-0.87
NKAPP1 (GeneID 158801)	1	-1.85	-1.23	-2.21	-2.13
VAMP4 (GeneID 8674)	1	1.95	1.6	2.04	2.2
LOC642846 (GeneID 642846)	1	-0.43	-0.39	-0.12	-0.77
PPP1R1A (GeneID 5502)	1	-1.49	-1.07	-1.61	-1.78
TRPV6 (GeneID 55503)	1	1.25	1.38	1.26	1.12
ZSWIM1 (GeneID 90204)	1	0.87	1.3	1.17	0.15
MDH2 (GeneID 4191)	1	-0.24	-0.5	-0.19	-0.04
UGT1A5 (GeneID 54579)	1	0.22	0.16	-0.09	0.59
GOLGA6A (GeneID 342096)	1	0.06	0.16	0.05	-0.02
APLP2 (GeneID 334)	1	-0.61	-0.25	-0.62	-0.95
SLC12A7 (GeneID 10723)	1	-0.31	-0.17	-0.21	-0.55
CACNG4 (GeneID 27092)	1	0.75	1.03	0.7	0.52
CREB3L1 (GeneID 90993)	1	-2.1	-2.01	-1.6	-2.68
C20orf66 (retired record) (GeneID 100287547)	1	-0.31	-0.28	-0.2	-0.45
NCOA2 (GeneID 10499)	1	0.55	0.37	0.53	0.76
DNAAF2 (GeneID 55172)	1	-0.79	-1.12	-0.94	-0.31
TMPRSS12 (GeneID 283471)	1	0.33	0.04	0.44	0.5
TNFAIP6 (GeneID 7130)	1	1.9	1.94	2.2	1.57
SRCIN1 (GeneID 80725)	1	1.06	1.29	0.69	1.19
RARRES1 (GeneID 5918)	1	1.51	1.48	1.8	1.26
SLAIN1 (GeneID 122060)	1	1.09	0.94	1.1	1.24
EEF2KMT (GeneID 196483)	1	-2.2	-2.19	-2.54	-1.89
TSGA10 (GeneID 80705)	1	-1.17	-1.33	-1.11	-1.07
B3GNT3 (GeneID 10331)	1	-0.59	-0.33	-0.57	-0.85
TM4SF5 (GeneID 9032)	1	0	-0.07	0.07	0
TAS2R50 (GeneID 259296)	1	-0.12	0.19	-0.27	-0.27
ZNF506 (GeneID 440515)	1	-0.32	-0.28	-0.02	-0.65
RNF145 (GeneID 153830)	1	1.21	1.75	0.81	1.07
U2SURP (GeneID 23350)	1	-0.14	-0.33	-0.12	0.03
ZNF557 (GeneID 79230)	1	1.37	1.26	1.6	1.25
IQSEC3P3 (GeneID 728056)	1	1.51	1.44	1.29	1.8
TAS2R13 (GeneID 50838)	1	-0.61	-0.86	-0.36	-0.6
JAK1 (GeneID 3716)	1	0.49	0.62	0.32	0.53
OVAAL (GeneID 148756)	1	0.19	-0.07	0.18	0.47
WDR64 (GeneID 128025)	1	-0.41	-0.18	-0.32	-0.72

Not a retest: entries from further up.
target gene	reagent	mean z-score	z-score, replicate A	z-score, replicate B	z-score, replicate C
APLP2 (GeneID 334)	1	-0.61	-0.25	-0.62	-0.95
SLC12A7 (GeneID 10723)	1	-0.31	-0.17	-0.21	-0.55
CACNG4 (GeneID 27092)	1	0.75	1.03	0.7	0.52
CREB3L1 (GeneID 90993)	1	-2.1	-2.01	-1.6	-2.68
C20orf66 (retired record) (GeneID 100287547)	1	-0.31	-0.28	-0.2	-0.45
NCOA2 (GeneID 10499)	1	0.55	0.37	0.53	0.76
DNAAF2 (GeneID 55172)	1	-0.79	-1.12	-0.94	-0.31
TMPRSS12 (GeneID 283471)	1	0.33	0.04	0.44	0.5
TNFAIP6 (GeneID 7130)	1	1.9	1.94	2.2	1.57

The results go on:
target gene	reagent	mean z-score	z-score, replicate A	z-score, replicate B	z-score, replicate C
CSF1R (GeneID 1436)	1	-0.89	0.03	-1.73	-0.97
BRD2 (GeneID 6046)	1	-2.71	-2.4	-2.84	-2.89
PRM3 (GeneID 58531)	1	-0.71	-1.35	-0.78	-0.02
KIF26A (GeneID 26153)	1	5.09 (active)	5.4	4.79	5.09
OLAH (GeneID 55301)	1	0.24	0.61	-0.04	0.14
TEK (GeneID 7010)	1	-1.06	-1.02	-1.04	-1.12
LOC400920 (retired record) (GeneID 400920)	1	0.7	0.58	0.53	0.98
MROCKI (GeneID 285758)	1	2.26 (active)	2.32	2.48	1.98
RNF212 (GeneID 285498)	1	0.11	-0.06	0.04	0.35
BICRA (GeneID 29998)	1	-1.56	-1.53	-1.39	-1.76
SH3YL1 (GeneID 26751)	1	-1.35	-1.22	-1.37	-1.47
HOXC5 (GeneID 3222)	1	2.47 (active)	2.35	2.6	2.46
LOC442030 (retired record) (GeneID 442030)	1	-0.12	-0.6	0.08	0.16
RBPJL (GeneID 11317)	1	0.06	0.1	0.1	-0.02
GIMAP7 (GeneID 168537)	1	0.29	0.28	0.4	0.18
LOC387927 (retired record) (GeneID 387927)	1	-0.25	-0.56	-0.05	-0.13
GARNL3 (GeneID 84253)	1	0.36	0.04	0.59	0.46
RPS24 (GeneID 6229)	1	-2.04	-2.04	-2.32	-1.76
SP1 (GeneID 6667)	1	0.71	0.99	0.98	0.17
SLC25A23 (GeneID 79085)	1	-0.88	-1.04	-0.97	-0.64
MX2 (GeneID 4600)	1	0.23	0.42	0.28	-0.03
KALRN (GeneID 8997)	1	-1.85	-1.61	-1.61	-2.33
KALRN (GeneID 8997)	2	0.68	0.84	0.74	0.44
SLK (GeneID 9748)	1	-0.52	-0.42	-0.66	-0.48
PARP4 (GeneID 143)	1	-0.76	-0.5	-0.83	-0.94
NSFL1C (GeneID 55968)	1	-1.76	-1.94	-1.78	-1.56
